Values of other authors, collected in PMC8184532 (European Journal of Clinical Pharmacology, 2021).

Conditions: coadministered with ritonavir-boosted darunavir and etravirine vs maraviroc alone

## maraviroc
  increase in maraviroc exposure: 3 fold
